{"sequences": {"note": "Amino acid sequences for entries named in this document (tags omitted). A change or cut given only in a name is not applied to a line headed by its entry.", "UniProt P0DPI0": "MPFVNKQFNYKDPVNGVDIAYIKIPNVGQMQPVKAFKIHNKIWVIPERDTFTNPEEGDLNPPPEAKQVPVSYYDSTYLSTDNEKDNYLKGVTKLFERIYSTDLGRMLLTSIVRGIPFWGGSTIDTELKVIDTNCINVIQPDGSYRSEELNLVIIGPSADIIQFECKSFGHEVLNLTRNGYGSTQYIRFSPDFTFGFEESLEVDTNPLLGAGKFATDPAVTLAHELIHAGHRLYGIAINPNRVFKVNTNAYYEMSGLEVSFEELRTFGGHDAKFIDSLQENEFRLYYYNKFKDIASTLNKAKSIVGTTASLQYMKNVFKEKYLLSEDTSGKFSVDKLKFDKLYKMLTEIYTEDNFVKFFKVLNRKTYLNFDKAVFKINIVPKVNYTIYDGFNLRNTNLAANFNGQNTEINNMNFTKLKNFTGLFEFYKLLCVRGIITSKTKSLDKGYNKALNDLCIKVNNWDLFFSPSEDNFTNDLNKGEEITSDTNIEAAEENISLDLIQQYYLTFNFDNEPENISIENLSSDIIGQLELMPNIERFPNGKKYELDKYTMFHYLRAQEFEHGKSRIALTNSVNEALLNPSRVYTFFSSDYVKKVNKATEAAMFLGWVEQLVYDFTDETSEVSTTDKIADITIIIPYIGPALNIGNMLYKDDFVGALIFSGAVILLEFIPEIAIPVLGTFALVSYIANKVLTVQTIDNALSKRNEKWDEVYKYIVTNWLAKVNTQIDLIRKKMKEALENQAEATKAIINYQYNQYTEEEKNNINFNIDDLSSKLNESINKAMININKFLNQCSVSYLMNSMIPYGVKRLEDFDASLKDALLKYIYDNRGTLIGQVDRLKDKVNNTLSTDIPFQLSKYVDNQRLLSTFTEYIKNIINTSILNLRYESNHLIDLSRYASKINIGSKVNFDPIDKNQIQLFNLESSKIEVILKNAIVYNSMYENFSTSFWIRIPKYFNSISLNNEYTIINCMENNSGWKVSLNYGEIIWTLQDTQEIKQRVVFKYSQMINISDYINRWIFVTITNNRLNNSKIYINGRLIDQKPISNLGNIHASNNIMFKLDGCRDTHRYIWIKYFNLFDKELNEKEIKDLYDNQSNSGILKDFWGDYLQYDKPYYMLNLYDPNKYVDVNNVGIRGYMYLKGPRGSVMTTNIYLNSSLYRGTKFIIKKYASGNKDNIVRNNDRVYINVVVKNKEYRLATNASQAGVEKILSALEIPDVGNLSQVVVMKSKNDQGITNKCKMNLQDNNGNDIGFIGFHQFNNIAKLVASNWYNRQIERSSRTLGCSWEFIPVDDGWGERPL"}, "source": "patent US8492428B2", "about": "(priority 2005, dated 2013)"}
{"target": "endopeptidase (LC) of botulinum neurotoxin serotype A (BoNTA) (Clostridium botulinum, UniProt P0DPI0)", "assay": "HPLC-based BoNTA light chain protease inhibition assay", "format": "biochemical", "settings": "drug concentration 15 μM", "units": {"% inhibition of BoNTA at 15 μM": "%"}}
{"substance": "2-(5-1-(4-Aminobutyl)-2-phenyl-1H-indole-6-carbonyl)-2-(4-fluorophenyl)-thiophen-3-yl)-N-hydroxyacetamide TFA salt", "% inhibition of BoNTA at 15 μM": 67}
{"substance": "2-(5-1-(4-Aminobutyl)-2-phenyl-1H-indole-6-carbonyl)-2-(3-hydroxyphenyl)-thiophen-3-yl)-N-hydroxyacetamide TFA salt", "% inhibition of BoNTA at 15 μM": 77}
{"substance": "2-(5-1-(4-Aminobutyl)-2-phenyl-1H-indole-6-carbonyl)-2-(pyrimidin-5-yl)thiophen-3-yl)-N-hydroxyacetamide TFA salt", "% inhibition of BoNTA at 15 μM": 50}
